BindingDB's records for 10632058

What follows are compounds tested against Neuraminidase (Influenza A virus (strain A/Tern/Australia/G70C/1975 H11N9), UniProt P03472) (assay: ASSAY_NAME: Neuraminidase Inhibition Assay DESCRIPTION: A standard fluorimetric assay was used to measure influenza virus neuraminidase activity. The substrate 2 -(4-methylumbelliferyl)-alpha-D-acetylneuraminic acid is cleaved by neuraminidase to yield a fluorescent product that can be quantified. Fluorescence was read using an Aminco-Bowman fluorescence spectrophotometer (excitation, 360 nm; emis). Conditions: pH 6.5.

SMILES | IC50
CCCC(CCC)Oc1cc(C(=O)O)ccc1NC(C)=O | 230 µM
CCC(CC)Oc1cc(C(=O)O)cc(N)c1NC(C)=O [3-amino-4-acetamido-5-(pentan-3-yloxy)benzoic acid] | 15 µM
CCC(CC)Oc1cc(C(=O)O)ccc1NC(C)=O [4-acetamido-3-(pentan-3-yloxy)benzoic acid] | 37 µM
CCC(CC)Nc1cc(C(=O)O)ccc1NC(C)=O | 25 µM
